Assay results as given in the supplement of paper PMC12637763.
Changes are numbered by the printed parent chain. Some of the results follow. Env chains of viruses from a treatment-interruption trial, translated from the printed DNA. IC50 / IC80 of two broadly neutralizing antibodies; lower = more sensitive virus; >50 µg/ml means not reached and <0.001 µg/ml is below the lowest dose. No active / inactive call.

B1: HIV-1 Env, rebound clone, antibody arm (protein)
chain: MRAKGIRKNCQDLLKGGILLLGILMICSAAGNLWVTVYYGVPVWKDATTTLFCASDAKGYSKEAHNVWATHACVPTDPDPREIVMGNVTENFNMWKNDMVDQMHEDIISLWDQSLKPCVKLTPLCVTLNCTNLNITNLNNTNSNTSDTNNNTSSENGSEEMKNCSFNVTTIKGKYQKEYAVLYKLDLVPIDNNDNTSYMLINCNTSVITQACPKISFEPIPIHYCAPAGFAILKCNNKTFNGTGPCTNVSSVQCTHGIRPVVSTQLLLNGSLAEEEVVIRSENFTDNAKTIIVQLKDPIQINCTRPNNNTRKSIHIGPGRAFYATGQIIGNIRQAYCNISKEQWNEALNQTVRKLREQFGNNKTMIFNQSSGGDPEIVMHTFNCGGEFFYCNTTQLFNSTWYDTTNSTDSNNNTIKLPCRIKQVINRWQEVGKAMYAPPISGPIRCSSNITGLLLVRDGGNNNSSNSSETFRPGGGNMKDNWRSELYKYKVVKIEPLGVAPTKAKRRVVQRERRAVTLGAMFLGFLGTAGSTMGAASLTLTVQARQLLSGIVQQQSNLLRAIEVHQHMLQLTVWGIKQLQARVLAVERYLKDQQLLGIWGCSGKLICTTTVPWNASWSKKNLSEIWDNMTWIEWEREIQNYTEEIYSLIEKSQNQQAKNEQELLELDKWANLWNWFDITNWLWYIKIFIMIVGGLIGLRIVFTVLSIVNRVRQGYSPLSFQTRLPTQRGPDRPGGTEEEGGERDRDTSRPLVDGFLAIIWVDLRSLFLFSYHRLRDLLLIVTRIVETLGRRGWELLKYWWNLLQYWSQELKNSAISLLNATAIAVAEGTDRVIELIQRAGRAIIHIPRRIRQGLESALL
B2: HIV-1 Env, rebound clone, antibody arm (protein)
chain: MRAKGIRKNCQDLLKGGILLLGILMICSAAGNLWVTVYYGVPVWKDATTTLFCASDAKGYSKEAHNVWATHACVPTDPDPREIVMGNVTENFNMWKNDMVDQMHEDIISLWDQSLKPCVKLTPLCVTLNCTNLNITNLNNTNSNTSDTNNNTSSENGSEEMKNCSFNVTTIKGKYQKEYAVLYKLDLVPIDNNDNTSYMLINCNTSVITQACPKISFEPIPIHYCAPAGFAILKCNNKTFNGTGPCTNVSSVQCTHGIRPVVSTQLLLNGSLAEEEVVIRSENFTDNAKTIIVQLKDPIQINCTRPNNNTRKSIHIGPGRAFYATGQIIGNIRQAYCNISKEQWNEALNQTVRKLREQFGNKTMIFNQSSGGDPEIVMHTFNCGGEFFYCNTTQLFNSTWYDTTNSTDSNNNTIKLPCRIKQVINRWQEVGKAMYAPPISGPIRCSSNITGLLLVRDGGNNNSSNSSETFRPGGGNMKDNWRSELYKYKVVKIEPLGVAPTKAKRRVVQRERRAVTLGAMFLGFLGTAGSTMGAASLTLTVQARQLLSGIVQQQSNLLRAIEVHQHMLQLTVWGIKQLQARVLAVERYLKDQQLLGIWGCSGKLICTTTVPWNASWSKKNLSEIWDNMTWIEWEREIQNYTEEIYSLIEKSQNQQAKNEQELLELDKWANLWNWFDITNWLWYIKIFIMIVGGLIGLRIVFTVLSIVNRVRQGYSPLSFQTRLPTQRGPDRPGGTEEEGGERDRDTSRPLVDGFLAIIWVDLRSLFLFSYHRLRDLLLIVTRIVETLGRRGWELLKYWWNLLQYWSQELKNSAISLLNATAIAVAEGTDRVIELIQRAGKAIIHIPRRIRQGLESALL
B3: HIV-1 Env, rebound clone, antibody arm (protein)
chain: B2 chain with I631V, K840R
B4: HIV-1 Env, rebound clone, antibody arm (protein)
chain: B2 chain with S114N, K667R, K840R
B5: HIV-1 Env, rebound clone, antibody arm (protein)
chain: B2 chain with W344C, K840R
B6: HIV-1 Env, rebound clone, antibody arm (protein)
chain: B2 chain with E632K, K840R

Experiments:
[1] = target: antibody 10-1074; experiment: neutralization IC50; higher = virus less sensitive to the antibody
Procedure: (§1)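 Pseudovirus bearing the Env chain mixed with antibody, from 50 µg/ml in fivefold dilutions, on TZM-bl reporter cells, in duplicate.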

[2] = target: antibody 3BNC117; experiment: as above
Procedure: as §1

[3] = target: antibody 10-1074; experiment: neutralization IC80; higher = virus less sensitive to the antibody
Procedure: as §1

[4] = target: antibody 3BNC117; experiment: as above
Procedure: as §1

Binder	neutralization IC50 [1]	neutralization IC50 [2]	neutralization IC80 [3]	neutralization IC80 [4]
B1	> 50 µg/mL	0.362 µg/mL	> 50 µg/mL	1.26 µg/mL
B2	> 50 µg/mL	0.509 µg/mL	> 50 µg/mL	1.65 µg/mL
B3	> 50 µg/mL	0.322 µg/mL	> 50 µg/mL	1.2 µg/mL
B4	> 50 µg/mL	0.331 µg/mL	> 50 µg/mL	1.16 µg/mL
B5	> 50 µg/mL	0.131 µg/mL	> 50 µg/mL	0.452 µg/mL
B6	> 50 µg/mL	0.312 µg/mL	> 50 µg/mL	1.08 µg/mL
